Data set [1] has as its system Vero cells. The experiment in a line: Cell toxicity MTT assay. The following applies: cytotoxic dose/antiviral dose (1μM/8 nM).
A short description of data set [2]: Biodistribution and toxicology of nebulized lipopeptide in AGM.

In the case of `CC[C@H](C)[C@H](NC(=O)[C@H](CO)NC(=O)[C@H](CC(=O)O)NC(=O)[C@H](CC(C)C)NC(=O)[C@@H](NC(=O)[C@H](CCCCN)NC(=O)[C@H](CC(N)=O)NC(=O)[C@H](CO)NC(=O)[C@H](CCCNC(=N)N)NC(=O)[C@H](CCCNC(=N)N)NC(=O)[C@@H](NC(=O)[C@H](Cc1c[nH]c2ccccc12)NC(=O)[C@H](CCC(=O)O)NC(=O)[C@H](CCCCN)NC(=O)[C@H](CO)NC(=O)[C@H](CCC(=O)O)NC(=O)[C@H](CCC(=O)O)NC(=O)[C@H](CC(C)C)NC(=O)[C@H](CC(=O)O)NC(=O)[C@H](CO)NC(=O)[C@H](CCCCN)NC(=O)[C@@H](NC(=O)[C@H](CCCCN)NC(=O)[C@H](CC(N)=O)NC(=O)[C@H](CC(C)C)NC(=O)[C@@H](NC(=O)[C@@H](NC(=O)[C@H](CO)NC(=O)[C@@H](NC(=O)[C@H](CC(=O)O)NC(=O)[C@@H](NC(=O)[C@@H]1CCCN1C(=O)[C@H](CC(=O)O)NC(=O)[C@H](CC(C)C)NC(=O)[C@H](C)NC(=O)[C@@H](NC(C)=O)C(C)C)[C@@H](C)CC)[C@@H](C)CC)[C@@H](C)CC)C(C)C)[C@@H](C)CC)[C@@H](C)CC)[C@@H](C)CC)C(=O)NCC(=O)N[C@@H](CO)C(=O)NCC(=O)N[C@@H](CO)C(=O)NCC(=O)NC(CSCC(=O)NCCOCCOCCOCCOCCC(=O)O[C@H]1CC[C@@]2(C)C(=CC[C@H]3[C@@H]4CC[C@H]([C@H](C)CCCC(C)C)[C@@]4(C)CC[C@@H]32)C1)C(N)=O` (stereo partly drawn) [VIKI-chol-PEG4], the “In vitro Therapeutic Index” value in data set [1] was “over 125”. Moreover, the “Blood biochemistry and hematology” value in data set [2] (single or triple nebulization, blood at 24, 48, 72h and 24h after last nebulization, n = 3) is on record as “remained within normal range in all animals”. Moreover, the “Lipopeptide deposition in lungs (anti-VIKI immunofluorescence)” value in data set [2] (three consecutive nebulizations at one-day intervals, 3 mL at 4 mg/ml, lungs taken 24h after last nebulization, n = 3 treated AGMs) is reported as “Staining was observed in different sections from both lungs of all treated animals”.

For the origin of these results see article PMC12212376 (Antiviral research, 2025).
